Experimental data from patent US10799494B2, “Combination of respiratory electron transport chain inhibitors with a cytochrome bd inhibitor” (priority 2015, dated 2020).

The chains behind the UniProt entries cited, without tags or fusion partners. Residues count along the entry.
UniProt P95160, whole entry: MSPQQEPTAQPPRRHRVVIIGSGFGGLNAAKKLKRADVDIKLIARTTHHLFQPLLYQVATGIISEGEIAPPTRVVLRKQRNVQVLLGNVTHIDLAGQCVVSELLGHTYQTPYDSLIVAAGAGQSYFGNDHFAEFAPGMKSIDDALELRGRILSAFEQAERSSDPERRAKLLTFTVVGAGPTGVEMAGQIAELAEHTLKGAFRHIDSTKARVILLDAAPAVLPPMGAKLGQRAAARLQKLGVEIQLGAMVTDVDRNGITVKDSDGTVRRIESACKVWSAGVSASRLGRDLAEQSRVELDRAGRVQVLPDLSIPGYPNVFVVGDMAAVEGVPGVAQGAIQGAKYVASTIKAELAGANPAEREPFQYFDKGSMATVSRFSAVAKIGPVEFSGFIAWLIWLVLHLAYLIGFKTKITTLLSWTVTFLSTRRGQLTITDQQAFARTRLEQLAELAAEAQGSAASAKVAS
UniProt L7N662, 1-485: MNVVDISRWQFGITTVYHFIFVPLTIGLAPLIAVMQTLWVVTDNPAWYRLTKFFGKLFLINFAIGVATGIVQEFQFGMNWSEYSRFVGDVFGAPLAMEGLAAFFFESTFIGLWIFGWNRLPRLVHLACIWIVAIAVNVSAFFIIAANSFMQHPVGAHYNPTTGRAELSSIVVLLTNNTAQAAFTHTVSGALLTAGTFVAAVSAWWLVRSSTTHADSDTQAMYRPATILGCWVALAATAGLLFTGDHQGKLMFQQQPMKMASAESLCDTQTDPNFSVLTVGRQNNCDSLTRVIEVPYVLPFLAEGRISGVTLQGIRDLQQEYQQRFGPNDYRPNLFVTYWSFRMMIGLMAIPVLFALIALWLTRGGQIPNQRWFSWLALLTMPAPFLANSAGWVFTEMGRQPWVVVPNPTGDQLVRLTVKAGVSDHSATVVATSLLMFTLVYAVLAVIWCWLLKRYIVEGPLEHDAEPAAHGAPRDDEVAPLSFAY

Key:
[1] = target: ndh (Mycobacterium tuberculosis (strain ATCC 25618 / H37Rv), UniProt P95160); assay: In vitro ndh enzyme inhibition; assay type: biochemical; settings: read-out: In vitro ndh enzyme inhibition (IC50)
[2] = target: M. tuberculosis cytochrome bd-I (Mycobacterium tuberculosis, UniProt L7N662); settings: read-out: In vitro Cyt bd enzyme inhibition (IC50); Table 5

`Cc1c(-c2ccc(N3CCC(F)(F)C3)cc2)[nH]c2cc(F)cc(F)c2c1=O` [MTC420] showed an IC50 [1] of over 1 µM and an IC50 [2] of 5.58 µM.
